The record followed here is PubChem BioAssay AID2629 (Broad Institute, 2010).

By UniProt entry, the sequences of proteins in these tests, tags left out.
UniProt Q9QR71, whole entry: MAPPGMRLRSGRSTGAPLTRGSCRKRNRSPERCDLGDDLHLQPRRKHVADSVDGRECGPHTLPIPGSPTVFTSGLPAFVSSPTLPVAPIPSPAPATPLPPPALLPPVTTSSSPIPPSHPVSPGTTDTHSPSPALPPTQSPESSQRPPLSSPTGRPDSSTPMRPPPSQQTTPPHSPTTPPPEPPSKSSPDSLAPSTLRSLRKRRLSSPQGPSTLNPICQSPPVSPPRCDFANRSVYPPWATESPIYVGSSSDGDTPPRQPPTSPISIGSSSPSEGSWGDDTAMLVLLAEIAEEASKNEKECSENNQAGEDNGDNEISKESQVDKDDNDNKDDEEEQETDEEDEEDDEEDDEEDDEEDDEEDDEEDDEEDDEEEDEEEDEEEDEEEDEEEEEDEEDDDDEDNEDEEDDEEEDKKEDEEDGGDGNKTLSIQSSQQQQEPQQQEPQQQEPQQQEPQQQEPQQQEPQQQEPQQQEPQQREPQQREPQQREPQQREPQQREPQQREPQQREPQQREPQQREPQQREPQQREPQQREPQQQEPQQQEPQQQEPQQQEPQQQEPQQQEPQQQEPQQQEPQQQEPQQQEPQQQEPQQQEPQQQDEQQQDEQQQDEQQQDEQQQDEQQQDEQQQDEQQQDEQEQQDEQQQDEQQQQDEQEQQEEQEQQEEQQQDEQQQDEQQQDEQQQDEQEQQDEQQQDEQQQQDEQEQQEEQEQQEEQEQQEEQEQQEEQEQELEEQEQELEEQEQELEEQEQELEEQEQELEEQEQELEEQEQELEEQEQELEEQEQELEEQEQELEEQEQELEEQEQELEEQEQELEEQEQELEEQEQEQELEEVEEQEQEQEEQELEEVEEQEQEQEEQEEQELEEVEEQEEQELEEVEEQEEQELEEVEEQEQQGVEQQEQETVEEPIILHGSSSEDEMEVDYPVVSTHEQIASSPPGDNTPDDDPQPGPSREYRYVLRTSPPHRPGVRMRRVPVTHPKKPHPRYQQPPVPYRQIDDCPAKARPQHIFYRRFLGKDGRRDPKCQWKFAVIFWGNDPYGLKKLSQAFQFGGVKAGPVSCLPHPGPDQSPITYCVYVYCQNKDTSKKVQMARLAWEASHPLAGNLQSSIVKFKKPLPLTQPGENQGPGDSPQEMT

The list shows a part of the results, in another mix than the full data. Some salts or complexes appear as unconnected parts, following the source record. Active and inactive are the calls of the source. Cut-off read from the data, not from the text of the source: active = inhibition mostly above about 10% (no sharp cut-off); inactive = mostly below about 6.7%.

For the experiment, the target named is Protein LANA1 (Human herpesvirus 8 type P (isolate GK18)) (UniProt Q9QR71). The experiment can be described thus: blockers of LANA interaction with H2A/H2B – biochemical, FP readout, HTS, primary screen (AID 2629). The conditions noted are these: cell-free LANA-H2A/H2B peptide, fluorescence polarization; active compounds read high; concentration not given here. Background: In fluorescence polarisation assays a small probe gives low polarisation when free and higher when bound to something large.
On to `c1nnnn1CCn1cnnn1`, for which the inhibition (in general, the drop in the measured response relative to a control, in per cent) is inactive: 0.155%.
Consider `CCOP(C)(=S)SCC(=O)NC(C)(CC)C(=O)O` (configuration not stated), for which the inhibition is inactive: -7.21%.
`CP(=O)(Nc1ccc2c(c1)OCCO2)Oc1ccccc1` (configuration not stated): the inhibition was inactive: 2.15%.
With `Cc1ccccc1NP(C)(=O)Nc1ccccc1C`, the inhibition is inactive: 1.43%.
As for `CN(C)C1(CNC(=O)c2ccc(Cl)c(S(N)(=O)=O)c2)CCCCC1`, the inhibition was inactive: 1.79%.
For `O=P(Nc1ccccn1)(c1ccc(Br)cc1)c1ccc(Br)cc1` the value was inactive: -5.23%.
Under `COc1ccc(OP(C)(=O)Nc2cccc(Br)c2)cc1` (configuration not stated) stands inactive: 0.928%; under `COc1ccc(NP(C)(=O)Oc2ccccc2OC)cc1` (configuration not stated), inactive: 0.0822%.
For `O=P(Nc1nc2ccccc2s1)(c1ccccc1)c1ccccc1` the value was inactive: 5.84%; for `CN(C)CCOC(=O)C(O)(c1ccccc1)C1CCCCC1` (configuration not stated), inactive: -1.24%; for `C[C@H]1OP(=O)(Oc2ccccc2)[C@H](O)[C@H](O)[C@H]1N=[N+]=[N-]` (some centres not stated), inactive: 9.71%.
As for `O=[As](O)(c1ccccc1)c1ccc(O)cc1`, the inhibition is inactive: 4.73%.
`O=[N+]([O-])c1cc([N+](=O)[O-])c(NCC2CCS(=O)(=O)C2)c([N+](=O)[O-])c1` (configuration not stated): the inhibition was inactive: -1.85%.
For `O=[N+]([O-])c1ncn(CCn2cnc([N+](=O)[O-])n2)n1` the value was inactive: 1.86%; for `CC(=O)NC(SC(=S)N(C)C)C(Cl)(Cl)Cl` (configuration not stated), inactive: 6.61%.
Regarding `O=[N+]([O-])c1ccc(OP2(=O)COCCO2)cc1` (configuration not stated), the inhibition was inactive: 0.0397%.
Under `O=[N+]([O-])c1ccc(O)c(/C=N/Nc2ccc([N+](=O)[O-])cc2[N+](=O)[O-])c1` stands inactive: 7.16%.
`O=C(OC1CN2CCC1CC2)c1cccc(Cl)c1` (configuration not stated): the inhibition was inactive: -0.277%.
For `C(Cc1nn[nH]n1)Cc1nn[nH]n1` the value was inactive: 1.41%.
For `Nc1ccc([As](=O)(O)c2ccc([N+](=O)[O-])cc2)cc1` the value was inactive: 0.931%; for `c1ccc(-c2nn[nH]n2)c(-c2nn[nH]n2)c1`, inactive: -4.32%; for `CCOC(=O)NC(Sc1ccccc1)C(Cl)(Cl)Cl` (configuration not stated), inactive: 2.13%.
Regarding `Cc1ccc(NP(=O)(Oc2cccc(C)c2)Oc2cccc(C)c2)nc1`, the inhibition is inactive: -4.71%.
On to `O=C(NC1CCS(=O)(=O)C1)NP(=S)(Oc1ccccc1)Oc1ccccc1` (configuration not stated), for which the inhibition was inactive: -0.539%.
With `CCNC(=S)/N=C(\N)N[N+](=O)[O-]`, the inhibition was inactive: 2.27%.
For `COc1ccc(OP(C)(=O)Nc2ccc(SC(F)(F)F)cc2)cc1` (configuration not stated) the value was inactive: 0.0736%; for `CCOC(=O)c1ccc(NP(C)(=O)Oc2ccc(F)cc2)cc1` (configuration not stated), inactive: 2.11%.
For `O=C(OC1CN2CCC1CC2)c1ccccc1` (configuration not stated) the value was inactive: 0.239%; for `CCC(=O)N1C2C3N(C(=O)CC)C1C1N(C(=O)CC)C(C(N1C(=O)CC)N3C(=O)CC)N2C(=O)CC`, inactive: -3.84%; for `CCN(CC)CCCOC(=O)C(O)(c1ccccc1)C1CCCCC1` (configuration not stated), inactive: -3.87%.
Under `COC(=O)c1cc2c(s1)N=C(c1ccccc1)N(C)P2(=O)N1CCOCC1` (configuration not stated) stands inactive: 7.44%.
With `Cc1ccc(OP(=O)(Nc2ccccn2)Oc2ccc(C)cc2)cc1`, the inhibition was inactive: 1.51%.
On to `CC(=O)NC(SC(=S)N(CC(C)C)CC(C)C)C(Cl)(Cl)Cl` (configuration not stated), for which the inhibition is inactive: 0.0788%.
Under `CC(NC(=O)COC(=O)C(O)(c1ccccc1)c1ccccc1)c1ccccc1` (configuration not stated) stands inactive: 3.73%; under `Cc1ccccc1OP(=O)(Nc1ccccn1)Oc1ccccc1C`, inactive: 5.19%.
`CCCCCOc1ccc(NP(C)(=O)Oc2ccc(Cl)cc2Cl)cc1` (configuration not stated): the inhibition was inactive: -1%.
Under `O=[N+]([O-])c1cc([N+](=O)[O-])c(OC2CCCCC2O)c([N+](=O)[O-])c1` (configuration not stated) stands inactive: -5.11%; under `CN(C)C(=O)Oc1noc2ccccc12`, inactive: -0.167%; under `CP(=O)(Nc1ccccc1)Oc1ccc(F)cc1` (configuration not stated), inactive: -1.41%.
Under `O=P1(Nc2nc3ccc(Cl)cc3s2)COc2ccccc2O1` (configuration not stated) stands inactive: -0.841%; under `CCOc1ccc(C2=NCC(CBr)S2)cc1` (configuration not stated), inactive: -0.974%; under `CC(C)(C)C(=O)NC(Sc1ccccc1)C(Cl)(Cl)Cl` (configuration not stated), inactive: 1.72%.
For `CC(C)c1ccc(OP(C)(=O)Nc2ccc(SC(F)(F)F)cc2)cc1` (configuration not stated) the value was inactive: -0.344%; for `CP(=O)(Nc1ccccc1F)Oc1ccccc1` (configuration not stated), inactive: -2.8%.
As to `O=C(OCCN1CCN(CCOCc2ccccc2)CC1)C(O)(c1ccccc1)c1ccccc1`, the inhibition was inactive: -1.16%.
Regarding `C[C@H]1OP(=O)(Oc2ccccc2)C[C@@H]2O[C@@H]21` (some centres not stated), the inhibition is inactive: 3.73%.
On to `C[C@@H]1C=CCP(=O)(Oc2ccccc2)O1` (some centres not stated), for which the inhibition is inactive: -1.26%.
As to `CC(=O)c1ccc(N2CC2c2ccncc2)cc1` (configuration not stated), the inhibition is inactive: -1.94%.
For `O=C(OC1CN2CCC1CC2)c1ccc([N+](=O)[O-])cc1` (configuration not stated) the value was inactive: 10.2%; for `CC(=O)Nc1ccc([As](=O)(O)O)c(O)c1`, inactive: 0.623%.
For `COc1ccc2c(c1O)-c1c(O)c(OC)cc3c1[C@H](C2)[N+](C)(C)CC3.O=[N+]([O-])c1cc([N+](=O)[O-])c([O-])c([N+](=O)[O-])c1[O-]`, the inhibition was inactive: 0.368%.
Turning to `CC(=O)Nc1ccc(Oc2c([N+](=O)[O-])cc([N+](=O)[O-])cc2[N+](=O)[O-])cc1`, the inhibition is inactive: 1.79%.
Under `CN(C(=O)Cc1ccc(Cl)c(Cl)c1)[C@H]1CCCC[C@H]1N1CCCC1` stands inactive: -4.66%; under `COc1ccccc1OP(C)(=O)Nc1ccc(Br)cc1` (configuration not stated), inactive: -5%.
Regarding `Cc1ccc(N/C(=N/P(=O)(N2CCOCC2)N2CCOCC2)N2CCOCC2)cc1`, the inhibition is inactive: 2.85%.
In the case of `NC(=O)c1cc([N+](=O)[O-])cc([N+](=O)[O-])c1N`, the inhibition is inactive: 5.09%.
For `CN1CCCC(OC(=O)C(c2ccccc2)c2ccccc2)C1` (configuration not stated) the value was inactive: -0.0688%.
For `CN(C)CCOC(=O)C(O)(c1ccccc1)C1CCCC1` (configuration not stated), the inhibition was inactive: -0.236%.
Under `Clc1ccc(Cl)c(NC2=NCC(CBr)S2)c1` (configuration not stated) stands inactive: -3.27%.
Take `COc1ccccc1OP(=O)(Nc1ccc(C)cn1)Oc1ccccc1OC`: the inhibition is inactive: 2.93%.
With `COc1ccc(OP(C)(=O)Nc2ccccn2)cc1` (configuration not stated), the inhibition is inactive: 0.601%.
Under `Cc1ccc(OP(=O)(Nc2nccs2)Oc2ccc(C)cc2)cc1` stands inactive: 4.15%.
